Source: patent publication US20100183613A1, “METHODS OF USING MEVALONATE DECARBOXYLASE (MVD) ANTAGONISTS” (NOVARTIS AG, priority 2008, published 2010)

System: Dengue NGC virus
Test: Dengue NGC live virus infection in K562 cells, FACS (anti-E/anti-NS1 double positive cells)
Format: cell-based
Conditions: K562 infection assay, CC50 over EC50
Description: For compound testing, K562 infection system was used. […] The cell viability is measured by Celltiter Glo.
To determine the EC50 (effective concentration of 50% inhibition of virus growth) and the cytotoxity CC50 (concentration of 50% cell death), a dose response curve covering at least four different concentrations was done in K562 infection. The decrease of the percentage of the dengue positive cells was then plotted against the concentrations of inhibitors, using a nonlinear regression analysis to obtain the EC50. CC50 was calculated using the same method using the cell viability over the same range of inhibitor concentrations.

Molecule	therapeutic index (TI) for inhibition of the virus over cell viability
C=C(CC[C@]12O[C@H](C(=O)O)[C@@](O)(C(=O)O)[C@](C(=O)O)(O1)[C@H](OC(=O)/C=C/[C@@H](C)C[C@@H](C)CC)[C@H]2O)[C@@H](OC(C)=O)[C@H](C)Cc1ccccc1 [Zaragozic Acid, Zaragozic acid A]	6 fold
Hymeglusin	12 fold
